Results of unrelated studies side by side (data: NIAID ChemDB).

All rows: whole-cell or culture tests; organism: Vaccinia virus; cells: E6SM; measure: EC50

Neighbouring rows are from separate reports.

structure	result
O=c1[nH]c(=O)n(C2C[C@H](CO)[C@@H](CO)C2)cc1I	>100 µg/mL
OC[C@H]1O[C@H](c2cc(Br)c(F)cc2F)C[C@@H]1O	>400 µg/mL
CC(=O)OCCOCN1C=C(C#N)C(N)=NS1(=O)=O	>400 µg/mL
Nc1ncnc2c1ncn2[C@@H]1O[C@H](COP(=O)(O)O[C@@H]2[C@H](O)[C@@H](COP(=O)(O)O[C@@H]3[C@H](O)[C@@H](COP(=O)(O)OP(=O)(O)OP(=O)(O)O)O[C@H]3n3cnc4c(N)ncnc43)O[C@H]2n2cnc3c(N)ncnc32)[C@@H](O)[C@H]1O	70 µg/mL
COC(=O)[C@]1(C)CCC[C@]2(C)c3ccc4[nH]c(C)nc4c3CCC12	>4 µg/mL
Nc1ncnc2c1ncn2[C@H]1C[C@@H](O)[C@H](O)[C@@H]1O	0.7 µg/mL
CC1(C)[C@@H](CCO)C[C@H]1n1cnc2c(=O)[nH]cnc21	>400 µg/mL
CC(=O)OCCOCN1C(=N)/C(=C(\C)O)C(N)=NS1(=O)=O	>400 µg/mL
O=C(CC1CCCCC1)N(O)c1ccc(Cl)cc1	>80 µg/mL
CC1(C)[C@@H](CCO)C[C@H]1n1nnc2c(Cl)nc(N)nc21	>100 µg/mL
COC(=O)[C@]1(C)CCC[C@]2(C)c3ccc4[nH]cnc4c3CCC12	>4 µg/mL
C[C@H]1O[C@@H](c2n[nH]c(C(N)=O)c2O)[C@H](O)[C@@H]1O	5.5 µg/mL
Cc1cn([C@@H]2OC[C@H](CO)[C@H]2N=[N+]=[N-])c(=O)[nH]c1=O	>80 µg/mL
CC1(C)[C@@H](CCO)C[C@H]1n1nnc2c(N)nc(N)nc21	20 µg/mL
CSc1ncnc2c1cnn2Cc1cnnn1CCCCO	>400 µg/mL
Nc1ncnc2c1ncn2[C@@H]1C[C@@H](O)[C@@H](O)[C@H]1O	0.1 µg/mL
Nc1nc(Cl)c2ccn([C@H]3CO[C@@H](CO)C3)c2n1	20 µg/mL
CC1(CO)CCC(Cn2cnc3c(N)nc(N)nc32)C1(C)C	150 µg/mL
OC[C@H]1O[C@@H](c2cc(I)c(F)cc2F)C[C@@H]1O	>400 µg/mL
NC(=O)c1cncc([C@@H]2O[C@H](CO)[C@H](O)[C@@H]2O)c1	≥100 µg/mL
Cc1cc([C@H]2C[C@H](O)[C@@H](CO)O2)c(Cl)cc1F	>400 µg/mL
N#Cc1cncc([C@H]2O[C@H](CO)[C@@H](O)[C@@H]2O)c1	≥100 µg/mL
Nc1ncnc2c1ncn2[C@@H]1O[C@H](CO)[C@](O)(C(F)(F)F)[C@H]1O	100 µg/mL
CC1(CO)CCC(Cn2cnc3c(Cl)nc(N)nc32)C1(C)C	≥100 µg/mL
NC(=O)c1cncc([C@H]2O[C@H](CO)[C@H](O)[C@@H]2O)c1	≥100 µg/mL
CC(=O)OCCOCN1C(N)=CC(N)=NS1(=O)=O	>400 µg/mL
OCCCCn1cc(Cn2ncc3c(SCc4ccccc4)ncnc32)nn1	>400 µg/mL
Nc1ncnc2c1ncn2[C@H]1C[C@@H](O)[C@H](O)[C@@H]1O	0.7 µg/mL
C=C[C@@H](O)C1=C[C@@H](n2cnc3c(N)ncnc32)[C@H](O)[C@@H]1O	0.2 µg/mL
Nc1nc(Cl)c2ncn([C@H]3CO[C@@H](CO)C3)c2n1	300 µg/mL
CCOC(=O)C1=CN(COCCOC(C)=O)S(=O)(=O)N=C1N	>400 µg/mL
CC(C)Nc1ncnc2c1ncn2C1C[C@H](CO)[C@@H](CO)C1	>100 µg/mL
OC[C@H]1O[C@@H](c2cc(F)c(F)cc2F)C[C@@H]1O	>400 µg/mL
C=C[C@H](O)C1=C[C@@H](n2cnc3c(N)ncnc32)[C@H](O)[C@@H]1O	70 µg/mL
O=c1[nH]c(=O)n([C@H]2C[C@H](O)[C@@H](CO)O2)cc1I	0.1 µg/mL
CC(=O)OCCOCN1C(C)=CC(N)=[N+](c2ccccc2)S1(=O)=O	>400 µg/mL
Nc1ccn([C@@H]2OC[C@H](CO)[C@H]2O)c(=O)n1	240 µg/mL
O=c1ccn([C@@H]2O[C@H](CO)[C@](O)(C(F)(F)F)[C@H]2O)c(=O)[nH]1	>400 µg/mL
Cc1cc([C@@H]2C[C@H](O)[C@@H](CO)O2)c(F)cc1Cl	>400 µg/mL
O=c1c2ncn(COC(CO)CO)c2nc2[nH]c(-c3ccccc3)cn12	>90 µg/mL
[N-]=[N+]=NC(CBr)c1cc([C@H]2C[C@H](O)[C@@H](CO)O2)c(F)cc1F	>400 µg/mL
O=c1[nH]c(=O)n([C@@H]2C[C@H](CO)C[C@H]2CO)cc1I	>100 µg/mL
OC[C@H]1O[C@@H](c2cc(/C=C/Br)c(F)cc2F)C[C@@H]1O	>400 µg/mL
CC1(CO)CCC(Cn2nnc3c(=O)[nH]c(N)nc32)C1(C)C	>200 µg/mL
Cc1cc([C@H]2C[C@H](O)[C@@H](CO)O2)c(F)cc1Cl	>400 µg/mL
CNc1ncnc2c1cnn2Cc1cn(CCCCO)nn1	>400 µg/mL
Cc1cn([C@@H]2OC[C@H](CO)[C@H]2O)c(=O)[nH]c1=O	>400 µg/mL
COC(=O)[C@]1(C)CCC[C@]2(C)c3ccc4[nH]c(C(F)(F)F)nc4c3CCC12	>4 µg/mL
Nc1ncnc2c1ncn2[C@@H]1O[C@H](COP(=O)([O-])OP(=O)([O-])OC[C@@H]2OC(O)[C@H](O)[C@H](O)[C@H]2O)[C@@H](O)[C@H]1O	40 µg/mL
Cc1cc([C@H]2C[C@H](O)[C@@H](CO)O2)c(F)cc1F	>400 µg/mL

Repeating the first 3 entries:

structure | result
O=c1[nH]c(=O)n(C2C[C@H](CO)[C@@H](CO)C2)cc1I | >100 µg/mL
OC[C@H]1O[C@H](c2cc(Br)c(F)cc2F)C[C@@H]1O | >400 µg/mL
CC(=O)OCCOCN1C=C(C#N)C(N)=NS1(=O)=O | >400 µg/mL

ECn: concentration that inhibits the pathogen or its effect by n%.